The record followed here is article PMC5754140, “Two classes of protective antibodies against Pseudorabies virus variant glycoprotein B: Implications for vaccine design” (PLoS Pathogens, 2017).

The target of assay [1] is T1, PRV gB ectodomain, soluble (residues A59 to N752, strain HN1201) (Pseudorabies virus (Suid …)). Put plainly: BLI.
For assay [2], the target named is T1, PRV gB ectodomain, soluble (residues …). Put plainly: negative stain EM 3D reconstruction.

B1: 1H1_NL Fab (N103 in HCDR3 replaced with alanine) (Fab, V domains shown)
VH: QVKLQESGAELVKPGASAKAACEASGYTFTSYWIHWVKQRPGQGLDWIGEINTSSGRTNYNERFKNKATLTVDKTSSTAYIQLSSLTSEDSAVYYCAREGFGAQSLDYWGQGTSLTVSS
VL: DIILTQSPAIMSASLGERVTLTCTASSSVSSSYLHWYQQKPGSSPKLWIYSTYNLAGAVPPRFSGSGSGTSYSLTISSMEAEDAATYYCQQYHRSPWTFGGGTKLEIK
For B1, in assay [1], the “fold decrease of affinity against wild type 1H1” value was roughly 1000 fold.

B2: 1H1_SL Fab (S105 in HCDR3 replaced with alanine) (Fab, V domains shown)
VH: QVKLQESGAELVKPGASAKAACEASGYTFTSYWIHWVKQRPGQGLDWIGEINTSSGRTNYNERFKNKATLTVDKTSSTAYIQLSSLTSEDSAVYYCAREGFGNQALDYWGQGTSLTVSS
VL: DIILTQSPAIMSASLGERVTLTCTASSSVSSSYLHWYQQKPGSSPKLWIYSTYNLAGAVPPRFSGSGSGTSYSLTISSMEAEDAATYYCQQYHRSPWTFGGGTKLEIK
B2: the “fold decrease of affinity against wild type 1H1” value in assay [1] is roughly 1000 fold.

B3: 1H1 Fab (wild type) (Fab, V domains shown)
VH: QVKLQESGAELVKPGASAKAACEASGYTFTSYWIHWVKQRPGQGLDWIGEINTSSGRTNYNERFKNKATLTVDKTSSTAYIQLSSLTSEDSAVYYCAREGFGNQSLDYWGQGTSLTVSS
VL: DIILTQSPAIMSASLGERVTLTCTASSSVSSSYLHWYQQKPGSSPKLWIYSTYNLAGAVPPRFSGSGSGTSYSLTISSMEAEDAATYYCQQYHRSPWTFGGGTKLEIK
For B3, the “stoichiometry N” value in assay [2] came to 3 Fab per gB trimer.
